Results reported in publication PMC4139342, “Pharmacokinetics-Pharmacodynamics Analysis of Bicyclic 4-Nitroimidazole Analogs in a Murine Model of Tuberculosis” (PLoS ONE, 2014).

System: Mtb
Assay: PK-PD indices from plasma and lung PK and MIC
Assay type: in vivo, mice
[1] = 25 mg/kg single dose PK, 24 h period
[2] = 25 mg/kg, PK parameters derived from 50 mg/kg

Row | Compound | Lung AUC/MIC, total concentration (25 mg/kg single dose PK) | Lung Cmax/MIC, total concentration (25 mg/kg single dose PK) | Plasma AUC/MIC, total concentration (25 mg/kg single dose PK) | Plasma fAUC/MIC, free concentration (25 mg/kg single dose PK) | Plasma fCmax/MIC, free concentration (25 mg/kg single dose PK) | Lung %T>MIC, total concentration [1] [%] | Plasma %T>MIC, total concentration [1] [%] | Plasma fT>MIC, free concentration [1] [%] | Lung %T>MIC, total concentration [2] [%] | Lung AUC/MIC, total concentration [2] | Lung Cmax/MIC, total concentration [2] | Plasma %T>MIC, total concentration [2] [%] | Plasma AUC/MIC, total concentration [2] | Plasma fAUC/MIC, free concentration [2] | Plasma fCmax/MIC, free concentration [2] | Plasma fT>MIC, free concentration [2] [%]
1 | O=[N+]([O-])c1cn2c(n1)OC[C@@H](NCc1ccc(OC(F)(F)F)c(Cl)c1)C2 [NI-135] | 620 | 183 | 160 | 13.3 | 3.3 | 95 | 66 | 16 | – | – | – | – | – | – | – | –
2 | O=[N+]([O-])c1cn2c(n1)OC[C@@H](NCc1ccc(OC(F)(F)F)c(F)c1)C2 [NI-136] | 1327 | 240 | 357 | 60 | 10 | 89 | 65 | 49 | – | – | – | – | – | – | – | –
3 | CC[C@H]1Oc2nc([N+](=O)[O-])cn2C[C@@H]1NCc1ccc(OC(F)(F)F)cc1 [NI-182] | 3660 | 570 | 1125 | 100 | 15 | 75 | 66 | 61 | – | – | – | – | – | – | – | –
4 | CC[C@H]1Oc2nc([N+](=O)[O-])cn2C[C@@H]1NCc1ccc(-c2ccc(OC(F)(F)F)cc2)cc1 [NI-297] | 11670 | 815 | 4955 | 90 | 5.0 | 100 | 100 | 98 | – | – | – | – | – | – | – | –
5 | O=C(CO[C@@H]1COc2nc([N+](=O)[O-])cn2C1)N1CCN(c2ccc(OC(F)(F)F)cc2)CC1 [NI-622] | – | – | – | – | – | – | – | – | 64 | 198 | 28 | 65 | 301 | 8.9 | 1.1 | 17
6 | O=C(CO[C@@H]1COc2nc([N+](=O)[O-])cn2C1)N1CCN(c2ccc(C(F)(F)F)cn2)CC1 [NI-644] | – | – | – | – | – | – | – | – | 84 | 211 | 42 | 93 | 498 | 50 | 8.9 | 53
7 | O=[N+]([O-])c1cn2c(n1)OC[C@@H](OCc1ccc(OC(F)(F)F)cc1)C2 [PA-824, (6S)-2-nitro-6-{[4-(trifluoromethoxy)benzyl]oxy}-6,7-dihydro-5H-imidazo[2,1-b][1, 3]oxazine, reference compound] | 466 | 59 | 170 | 17 | 2.0 | 96 | 66 | 37 | – | – | – | – | – | – | – | –
